Pooled drug test results. Numbers come from NIAID ChemDB, via PubChem.

All rows: tests in culture; organism: Cryptococcus neoformans; measure: MIC

Rows are shuffled and stem from different studies. An empty or dashed field is not shown.

compound | strain | method | value
Nc1ccc(S(=O)(=O)Nc2ccnn2-c2ccccc2)cc1 | IFM 51976 | - | 8 µg/mL
COc1cc(O)c2c(c1)C(=O)c1c(cc3c(c1O)-c1c(cc(C)c(C(=O)NC(CO)C(=O)O)c1O)[C@H](OC1OC(C)C(N(C)C)C(OC4OCC(O)C(O)C4O)C1O)[C@H]3O)C2=O | CS-01 | - | 1.6 µg/mL
Oc1cccc(C=Nc2ccccc2O)c1 | 5396 | broth dilution | 5.7 µg/mL
CCCCCC(Cn1ccnc1)c1c(Cl)cccc1Cl | - | - | <1 µg/mL
Oc1ccccc1N=Cc1cccc(O)c1O | ATCC 62066 | broth dilution | 2 µg/mL
CCN(CC)c1ccc2cc(NNN)c(=O)oc2c1 | ATCC | broth dilution | >990 µM
NCCNC(=O)C1=Nc2ccc(NC(=O)C3=Nc4ccc(C(=O)Nc5ccc6[nH]c(C(=O)NCCN)cc6c5)cc4C3)cc2C1 | Serotype B | - | 4 µg/mL
CCCC(Cn1ccnc1)c1ccccc1Cl | - | - | 100 µg/mL
Clc1ccc(CC(Cn2ccnc2)c2ccc(Cl)cc2Cl)cc1 | - | - | <1 µg/mL
C[C@H](n1nnnc1CCN1CCN(c2ccccc2Cl)CC1)[C@](O)(Cn1cncn1)c1ccc(F)cc1F | LA314 | - | 8 µg/mL
COc1ccc(/C=C2\CCc3ccccc3C2=O)cc1OC | Farwania | - | 25 µg/mL
Oc1ccccc1N=Cc1ccccc1 | LMM 820 | broth dilution | 5.7 µg/mL
COc1ccc(N2CCN(CCc3nnnn3CC(O)(Cn3cncn3)c3ccc(F)cc3F)CC2)cc1 | LA314 | - | >16 µg/mL
COc1cc(NS(=O)(=O)c2ccc(N)cc2)nc(OC)n1 | IFM 40216 | - | ≥256 µg/mL
CCC(C)CC(C)CCCCCCCCC(=O)N[C@H]1C[C@@H](O)[C@H](NCCN)NC(=O)[C@@H]2[C@@H](O)CCN2C(=O)[C@H]([C@H](O)CCN)NC(=O)[C@H]([C@H](O)[C@@H](O)c2ccc(O)cc2)NC(=O)[C@@H]2C[C@@H](O)CN2C(=O)[C@H]([C@@H](C)O)NC1=O | CBS 131 | broth dilution | 16 µg/mL
Cn1nc(Cc2ccc(Cl)cc2)c2ccccc2c1=O | Clinical isolate (IM 031631) | broth dilution | 62.5 µg/mL
Clc1ccc(CC(Cn2ccnc2)c2ccccc2Cl)cc1 | - | - | <1 µg/mL
CC[C@@H]([C@H](C)O)n1ncn(-c2ccc(N3CCN(c4ccc(OC[C@@H]5CO[C@@](Cn6cncn6)(c6ccc(F)cc6F)C5)cc4)CC3)cc2)c1=O | 85-569 | - | 0.125 µg/mL
O[C@](Cn1cncn1)(Cn1cnc(/C=C/c2ccc(OCC(F)(F)C(F)F)cc2)n1)c1ccc(F)cc1F | TIMM0362 | - | 0.39 µg/mL
C[C@@H](n1ncn(-c2ccc(OCC(F)(F)C(F)F)cc2)c1=O)[C@](O)(Cn1cncn1)c1ccc(F)cc1F | DUMC 251.86 | - | 0.125 µg/mL
C[C@@H](n1cnc2cc(Cl)ccc2c1=O)[C@](O)(Cn1cncn1)c1ccc(F)cc1F | Isolate 251.86 | - | 0.0098 µg/mL
COc1ccc2c(c1)C(=O)/C(=C/c1ccc(OC)c(OC)c1)CO2 | 93/V | - | 1.5 µg/mL
Oc1ccc(O)c(C=Nc2ccccc2O)c1 | WP | broth dilution | 8 µg/mL
CCCCCCC(Cn1ccnc1)c1ccc(Cl)cc1Cl | - | - | <1 µg/mL
OC(Cn1cncn1)(Cn1nnnc1CCN1CCN(c2ccc(Cl)cc2)CC1)c1ccc(F)cc1F | LA314 | - | >16 µg/mL
C[C@H]1[C@H](O)[C@@H](C)/C=C/C=C/C=C/C=C/C=C/C=C/C=C/[C@H](O[C@@H]2O[C@H](C)[C@@H](O)[C@H](N)[C@@H]2O)C[C@@H]2O[C@](O)(C[C@@H](O)C[C@@H](O)CC[C@H](O)[C@@H](O)C[C@@H](O)CC(=O)O[C@H]1C)C[C@H](O)[C@H]2C(=O)O | A28201 | - | 0.25 µg/mL
OCC1c2ccccc2SC1c1ccc(O)cc1O | 93/V | - | 50 µg/mL
Oc1ccccc1N=Cc1ccc2c(c1)OCO2 | F-10 | broth dilution | 11.3 µg/mL
CCC(C)n1ncn(-c2ccc(N3CCN(c4ccc(OC[C@H]5CO[C@](Cn6cncn6)(c6ccc(Cl)cc6Cl)O5)cc4)CC3)cc2)c1=O | Clinical isolate (IM 031633) | broth dilution | 0.25 µg/mL
COc1ccc(/C=C2\COc3ccccc3C2=O)cc1 | Farwania | - | 100 µg/mL
CN(C)c1ccc(-c2sc3ccccc3c2CO)cc1 | Farwania | - | 12.5 µg/mL
Clc1ccccc1C(Cc1c(Cl)cccc1Cl)Cn1ccnc1 | - | - | 10 µg/mL
CCCCCCCCC(Cn1ccnc1)c1ccccc1Br | - | - | 10 µg/mL
Cc1nnc(NS(=O)(=O)c2ccc(N)cc2)s1 | IFM 49624 | - | ≥256 µg/mL
O=[N+]([O-])c1ccc(C=Nc2ccccc2O)cc1 | LMM 820 | broth dilution | 16 µg/mL
CCCCCCCC(Cn1ccnc1)c1ccc(Cl)cc1 | - | - | <1 µg/mL
Clc1ccc(CC(Cn2ccnc2)c2c(Cl)cccc2Cl)c(Cl)c1 | - | - | 10 µg/mL
Cc1cc(NS(=O)(=O)c2ccc(N)cc2)no1 | IFM 51976 | - | 32 µg/mL
OCC1c2ccccc2SC1c1ccc2c(c1)OCO2 | Isolate 25 | - | 12.5 µg/mL
COc1ccccc1/C=C1\CSc2ccc(Cl)cc2C1=O | Farwania | - | 12.5 µg/mL
CCCCCC(Cn1ccnc1)c1ccc(Cl)cc1 | - | - | 10 µg/mL
OC(Cn1cncn1)(Cn1nnnc1CCN1CCN(C(c2ccccc2)c2ccccc2)CC1)c1ccc(F)cc1F | LA314 | - | >16 µg/mL
CCCCCC(Cn1ccnc1)c1ccc(F)cc1 | - | - | 10 µg/mL
C=CC[C@@H]1/C=C(/C)C[C@H](C)C[C@H](OC)[C@H]2O[C@@](O)(C(=O)C(=O)N3CCCC[C@H]3C(=O)O[C@H](/C(C)=C/[C@@H]3CC[C@@H](O)[C@H](OC)C3)[C@H](C)[C@@H](O)CC1=O)[C@H](C)C[C@@H]2OC | H99 | - | 0.19 µg/mL
CCCCCOc1ccc(-c2cc(-c3ccc(C(=O)N[C@H]4C[C@@H](O)[C@@H](O)NC(=O)[C@@H]5[C@@H](O)[C@@H](C)CN5C(=O)[C@H]([C@H](O)CC(N)=O)NC(=O)[C@H]([C@H](O)[C@@H](O)c5ccc(O)c(OS(=O)(=O)O)c5)NC(=O)[C@@H]5C[C@@H](O)CN5C(=O)[C@H]([C@@H](C)O)NC4=O)cc3)no2)cc1 | FMR 8420 | - | 64 µg/mL
C[C@H]([C@](O)(Cn1cncn1)c1ccc(F)cc1F)S(C)(=O)=O | B4500 (AZOLE-S) | - | 2 µM
CCCCCCC(Cn1ccnc1)c1ccc(Cl)cc1 | - | - | <1 µg/mL
OCC1c2ccccc2SC1c1ccccc1 | Isolate 25 | - | 6 µg/mL

The first 4 rows once more:

compound	strain	method	value
Nc1ccc(S(=O)(=O)Nc2ccnn2-c2ccccc2)cc1	IFM 51976	-	8 µg/mL
COc1cc(O)c2c(c1)C(=O)c1c(cc3c(c1O)-c1c(cc(C)c(C(=O)NC(CO)C(=O)O)c1O)[C@H](OC1OC(C)C(N(C)C)C(OC4OCC(O)C(O)C4O)C1O)[C@H]3O)C2=O	CS-01	-	1.6 µg/mL
Oc1cccc(C=Nc2ccccc2O)c1	5396	broth dilution	5.7 µg/mL
CCCCCC(Cn1ccnc1)c1c(Cl)cccc1Cl	-	-	<1 µg/mL